The text below walks through data of patent publication US20190298735A1, “TREATMENT AND PREVENTION OF CLOSTRIDIUM DIFFICILE COLITIS USING MISOPROSTOL” (Vanderbilt University, priority 2016, published 2019).

Molecules are shown by their SMILES.

For this data set, the system named is gut microbiome. In words: Gut microbiome diversity, 16S rRNA sequencing of cecal contents. The class given is in vivo, mice. Particulars: indomethacin 10 mg/kg/d by gavage for 2 days, inverse Simpson index.

As to `COc1ccc2c(c1)c(CC(=O)O)c(C)n2C(=O)c1ccc(Cl)cc1` [indomethacin], the “microbial diversity in the colon (gut microbiome)” value is on record as “significantly altered microbial diversity”. Further, for the setting “listed as Indomethacin”, the “microbial diversity in the colon (gut microbiome)” value is “alters gut microbiome”.
